## Percent effect of library compounds

Source: ChEMBL document CHEMBL3988442, “University of Dundee, Small-Polar-MMV Screening Library” (2021).

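Phenotypic screen: M. tuberculosis growth, glucose 7H9 medium, 3 days; the read-out is not stated. Concentration: 500 µM. The record gives no direction; compounds that gave an IC50 in retests scored well above the rest, so higher reads as more growth inhibition. Of about 18,000 compounds tested this way, about 1,400 (7.9%) reached 50% or more in at least one test.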

Results are given as percent effect. How 0% and 100% were set is not recorded. Most values in the screen are low, and negative values occur. Many other results are left out here, so strong results are more common than in the screen.

SMILES	effect
COc1cccc(CNC(=O)[C@H]2C[C@@H](O)CN2)c1OC	-0.4514%
Cc1c[nH]c(CN(C)C(=O)CN2CCOCC2)n1	-11.92%
CC[C@H](C)[C@H](N)C(=O)NCCCc1ccccn1	2.837%
Cn1ncnc1CNC(=O)NCc1cc(F)cc(F)c1	-5.708%
CCN1CCN(S(=O)(=O)c2cc(C)ccc2OC)CC1	24.73%
CCn1cc(S(=O)(=O)N2CC[S+]([O-])C(C)(C)C2)cn1 (stereo not given)	-7.593%
CS(=O)(=O)CCSCC(=O)Nc1ccccc1	11.54%
COCCCNC(=O)CN(C)c1ccc2nccn2n1	6.053%
N#Cc1ccccc1CN1CCn2ccnc2C1	-11.65%
CC1(C)C(=O)NCCN1C(=O)Cc1ccccc1Cl	21.64%
CC1CCCc2nccn21 (stereo not given)	-0.7317%
CSc1c(F)cc(NC(=O)NCCO)cc1F	50.24%
Cc1nc(NC(=O)NCCC(C)O)sc1C (stereo not given)	27.52%
N#Cc1ccccc1CN1CCC2(CC1)[C@H](O)C[C@@H]2O	-1.407%
CCN1CCN(CC(C)CNc2ccccn2)CC1 (stereo not given)	-5.252%
CNCc1cc(C#N)ccc1F	46.32%
CC(=O)NCCNC(=O)N1CCc2sccc2C1	9.811%
CC(CNC(=O)c1ccc(Cl)cn1)Cn1ccnc1 (stereo not given)	81.97%
CC(C)CCC(=O)NCC(=O)NCC(O)C(C)(C)C (stereo not given)	11.95%
CCc1nnc(CNc2cc([C@H]3C[C@@H](N)C3)ncn2)s1	16.37%
NC(=O)c1ccc(S(N)(=O)=O)cc1	39.3%
Cc1ccc2oc(CN)cc2c1	-6.921%
CC(=O)Nc1nc(C(=O)NCc2ccc(C)s2)cs1	72%
COC(=O)c1coc(CN2CCC(O)(CO)CC2)n1	-0.1448%
Cc1noc(COc2ccc(S(C)(=O)=O)cc2)n1	-13.26%
C[C@@]1(O)CCN(C(=O)CN)C[C@@H]1Cc1ccccc1	55.82%
CC(C)Cn1ccnc1CNc1ncccc1F	63.13%
CCOC(=O)N1CCN(Cc2nc(C3CC3)no2)CC1	83.24%
NC(=O)CN1CCOC(c2ccc(Cl)s2)C1 (stereo not given)	40.96%
COCCN1CCN(CCc2ccccn2)CC1C (stereo not given)	1.987%
CC(Nc1ccc(OC(F)F)cn1)c1ccncc1 (stereo not given)	72.14%
CCN1CC(=O)NC1c1cccc(C#N)c1 (stereo not given)	12.83%
Cc1nc(C(F)(F)F)ccc1C(=O)NCCS(C)(=O)=O	-3.443%
CNC(=O)C1CCCN1Cc1cccc(C(=O)OC)c1 (stereo not given)	20.66%
COC(=O)CNC(=O)c1ccc(C)c(-n2cccc2)c1	59.59%
O=C(NCCO)NCc1ccncc1OCC(F)(F)F	0.6981%
CCCn1c(O)nnc1SCc1cccnc1	26.8%
CN(C)c1cccc(CN)n1	4.088%
Nc1ccc(N2CCCCC2)cn1	8.084%
CCSc1nnc(-c2ccc[nH]2)o1	53.82%
NS(=O)(=O)Cc1cccc(NC(=O)N2CCSCC2)c1	10.45%
COc1cccc(NCCC#N)c1	30.24%
NCC1CSc2ccccc2O1 (stereo not given)	48.53%
c1nc(N2CCNCC2)c2sccc2n1	-3.832%
O=C(NCC1CCN(C2CC2)C1)c1ccccn1 (stereo not given)	45.57%
CNC(=O)c1sc(NC2CC2)nc1C	68.04%
O=C(CSc1cnn[nH]1)N1CCc2ccccc2C1	49.95%
Cc1cccc(CN(CC(N)=O)Cc2ccccn2)c1	59.32%
Cc1cc(NC(=O)CN(C)Cc2ccccc2)no1	76.08%
O=C(NCC1CCCNC1)c1coc2ccccc12 (stereo not given)	5.914%
Cc1cc(NC(=O)NCC[S+]([O-])C(C)(C)C)no1 (stereo not given)	-4.331%
COCCN(C)C(=O)Nc1cccc(Cl)c1	53.69%
CC(C)c1ccsc1C(=O)NCCCC(N)=O	5.807%
Cc1cc(C)c(C(=O)N2CC(CO)C2)o1	3.299%
CCN(CC)C(=O)Nc1cc2c(cc1C)OCO2	17.05%
CN(Cc1ccc(N)nc1)c1cccc(C#N)n1	42.95%
NCc1ccccc1S(N)(=O)=O	-5.198%
O=C(NCC1CCS(=O)(=O)C1)c1cccc2cn[nH]c12 (stereo not given)	10.86%
CN(C)c1ncc(CO)n1C	8.126%
CN(C)S(=O)(=O)N(CCO)Cc1ccc(Cl)c(Cl)c1	65.65%
CC1COC2(CCN(c3ccncc3Cl)CC2)O1 (stereo not given)	-6.658%
CN(C)S(=O)(=O)c1ccc(O)cc1	16.6%
CC(C)(C)C(=O)N1CCC(O)(C(F)(F)F)C1 (stereo not given)	6.377%
CCS(=O)(=O)N(C)CCCNc1ccc(C)c(C#N)n1	71.49%
CC(=O)c1ccncn1	-1.313%
CCOCCN1CCN(CC(=O)NCCC#N)CC1	7.217%
O=C(CCn1cncn1)N1CCN(c2nccs2)CC1	9.286%
OCCOCCNCc1ccc(-c2ccc(F)cc2)o1	56.12%
CNCc1cnn(-c2ccccc2)c1	7.208%
COc1ccc(C2=NN=C(NC3CC3)SC2)cc1OC	25.49%

Repeated from the top, 8 entries:

| SMILES | effect |
|---|---|
| `COc1cccc(CNC(=O)[C@H]2C[C@@H](O)CN2)c1OC` | -0.4514% |
| `Cc1c[nH]c(CN(C)C(=O)CN2CCOCC2)n1` | -11.92% |
| `CC[C@H](C)[C@H](N)C(=O)NCCCc1ccccn1` | 2.837% |
| `Cn1ncnc1CNC(=O)NCc1cc(F)cc(F)c1` | -5.708% |
| `CCN1CCN(S(=O)(=O)c2cc(C)ccc2OC)CC1` | 24.73% |
| `CCn1cc(S(=O)(=O)N2CC[S+]([O-])C(C)(C)C2)cn1` (stereo not given) | -7.593% |
| `CS(=O)(=O)CCSCC(=O)Nc1ccccc1` | 11.54% |
| `COCCCNC(=O)CN(C)c1ccc2nccn2n1` | 6.053% |